Reference: the supplement of paper PMC9931576
Human monoclonal antibodies against the spike receptor-binding domain (heavy:light variable regions). IC50 against pseudoviruses bearing the spike of naturally observed variants; lower = stronger; >10 µg/ml means not reached at the top dose. No active / inactive call. The stated detection limit is 0.0005 µg/ml; values near or below 0.001 µg/ml lie at the floor of the assay.

Columns and labels:
Assay in all cases: pseudovirus neutralization IC50; higher = weaker neutralization
[1] = target: SARS-CoV-2 Omicron BA.1 spike pseudovirus
Protocol: (§1)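 Single-round VSV luciferase pseudovirus mixed with antibody dilutions for 1 h and put on Huh-7 cells for about a day; IC50 from the dose curve.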

[2] = target: SARS-CoV-2 Omicron BA.2 spike pseudovirus
Protocol: as §1

[3] = target: SARS-CoV-2 Omicron BA.2.75 spike pseudovirus
Protocol: as §1

[4] = target: SARS-CoV-2 Omicron BA.5 spike pseudovirus
Protocol: as §1

[5] = target: SARS-CoV-2 Omicron BQ.1.1 spike pseudovirus
Protocol: as §1

[6] = target: SARS-CoV-2 Omicron XBB spike pseudovirus
Protocol: as §1

[7] = target: SARS-CoV-2 early D614G spike pseudovirus
Protocol: as §1

Binder	pseudovirus neutralization IC50 [1]	pseudovirus neutralization IC50 [2]	pseudovirus neutralization IC50 [3]	pseudovirus neutralization IC50 [4]	pseudovirus neutralization IC50 [5]	pseudovirus neutralization IC50 [6]	pseudovirus neutralization IC50 [7]
BD55-1004 (protein) chain 1: EVQLVESGGRLVQRGGSLRLSCAASGFRFNSYSMNWVRQAPGKGLEWVSYITSTSGTTYYADSVKGRFTISRDNAKNSLFLQMNSLRDEDTAVYFCARVLSPTYNDAFSGPDAFDLWGQGTRVTVSS chain 2: DIRMTQSPSTLSASVGDRVTITCRASQSISPWLAWYQQKPGKAPKLLIYKAFSLESGVPSRFSGSGSGTEFTLTISSLQPDDFATYYCQQYNNYEWTFGQGTKVEIK	> 10 µg/mL	> 10 µg/mL	> 10 µg/mL	> 10 µg/mL	> 10 µg/mL	> 10 µg/mL	0.731 µg/mL
BD55-4467 (protein) chain 1: EVQLVESGGGLIQPGGSLRLSCAASGFIFSRYAMSWVRQPPGKGLEWVASISGGADDTYYADSVKGRLTTSRDNSKNTLYLQMNTLRVEDTAVYYCAKGPRYNWDYGDYWGQGIMVTVSS chain 2: DIQMTQSPSTLSASVGDRVTMTCRASQSISSWLAWYQQKPGKAPKLLIYDASSLDSGVPSRFSGSGSGTEFTLTISSLQPDDFATYYCQQYNSYLSTFGQGTKLEIK	7.27 µg/mL	8.94 µg/mL	6.29 µg/mL	> 10 µg/mL	> 10 µg/mL	> 10 µg/mL	> 10 µg/mL
BD55-4397 (protein) chain 1: EVQLVESGGGLVQPGGSLRLSCTASGFAFSTYEMNWVRQAPGKGLEWVSFISTGGNILYYADSLEGRFTISRDNAKNSLYLQMNGLRAEDTAVYYCARHYYDTSGLRGFFQHWGRGTLVTVSS chain 2: DIQMTQSPSSLSASVGDRVTITCRASQSIGTYLNWYQQKPGKAPKLLIYAASSLQSGVPSRFSGSGSGTDFTLTISSLQPEDFATYYCQQSYTTFFFTFGPGTKVVIR	> 10 µg/mL	> 10 µg/mL	> 10 µg/mL	> 10 µg/mL	> 10 µg/mL	> 10 µg/mL	2.18 µg/mL
BD55-4325 (protein) chain 1: QAQLVQSGAEVKKPGASVKVSCEAIGYAFKTYGISWVRQAPGQGLEWVGWISGHDGTTNYAQKFQGRVTLTTDTSTNTAFLEVKSLRSDDTAVFYCARDKAYSGYDYWSTIFDYWGQGTLVTVST chain 2: SYVLTQPPSVSVAPGKTATITCGGNNIRSKSVQWFQQRPGQAPILVLYYDTDRPSGIPERFSGSNSGNTATLTISRVEAGDEADYYCQVWDSTTDHYLFGTGTKVTVL	> 10 µg/mL	> 10 µg/mL	> 10 µg/mL	> 10 µg/mL	> 10 µg/mL	> 10 µg/mL	0.198 µg/mL
BD55-1009 (protein) chain 1: QVQLVQSGAEVKKPGSSVKVSCKTSGGTFRNYPISWVRQAPGQGLEWMGRIIPVPGTVDYAQKFQGRVTFTADKSTFTAYMELNSLRSDDTAVYYCATWAEIYTSASSWAFDTWGQGTRVTVSS chain 2: DIQMTQSPSSLSASVGDRITITCLASQDINNYLNWYQQKPGKAPKLLIYDASNLVTGVPSRFSGSGSGTDFVFTITGLQPEDFATYYCQHYDNLPPITFGQGTRLEIK	> 10 µg/mL	0.0158 µg/mL	0.422 µg/mL	> 10 µg/mL	> 10 µg/mL	> 10 µg/mL	0.00195 µg/mL
BD55-4351 (protein) chain 1: QVQLVESGGGVVQPGRSLRLSCAASGFTFSDYGMHWVRQAPGKGLEWVAVISHDGSKKYYADSVKGRFTISRDNSKNTLYLQMNSLRAEDTAVHYCAKEGYSGYDFSSPQRYYHYTLDVWGQGTTVTVSS chain 2: QSVLTQPPSASGTPGQRVTISCSGSISNIGSNTVNWYQHLPGTAPKLLIYSNNQRPSGVPDRFSGSRSGTSASLAISGLQSEDEADYYCAAWDDSLNCMVFGGGTKLTVL	> 10 µg/mL	> 10 µg/mL	> 10 µg/mL	> 10 µg/mL	> 10 µg/mL	> 10 µg/mL	1.61 µg/mL
